A mixed list of measured activities; the numbers were collected in NIAID ChemDB.

All rows: growth or infection tests; organism: HIV-1; cells: MT-4; measure: EC50

ECn is the concentration giving n% inhibition of infection, replication or growth.

structure	strain	mutations	method	value
Cc1ccc2sn(/N=C/c3cccc(O)c3)c(=O)c2c1		Y181C	MTT	>16 µM
COc1ccc(-c2nnc(SC(c3ccccc3)c3ccccc3)n2N)cc1	NNRTI-resistant N119	RT-Y181C		>100 µM
Nc1ncnc2c1ncn2[C@@H]1CO[C@H](CO)S1				50 µg/mL
COc1ccc(C(=O)Nc2sc3c(c2C(=O)Nc2ccccn2)CCCCC3)cc1OC	IIIB		MTT / absorbance	>6.24 µM
CCc1c(Cc2cc(C)cc(C)c2)n(COCC#Cc2ccc(CO)cc2)c(=O)[nH]c1=O	IIIB	K103N + Y181C	MTT	2 µM
O=c1ccn([C@H]2CO[C@@H](CO)S2)c(=O)[nH]1				>100 µg/mL
Cc1cn(C2OC(CO[Si](C)(C)C(C)(C)C)C3(OS(=O)(=O)C=C3N)C2O[Si](C)(C)C(C)(C)C)c(=O)n(CC(=O)N(CCCl)CCCl)c1=O	IIIB		trypan blue	0.08 µM
O=c1ccn([C@H]2C=C[C@@H](CO)O2)c(=O)n1CC#CCN1CCN(CCNC(=S)Nc2ccc(Br)cn2)CC1	IIIB		RT activity	>100 µM
Cc1nn(COC(CO)CN=[N+]=[N-])c(=O)[nH]c1=O			p24	>1000 µM
O=C(/C=C/c1ccc(O)c(O)c1)Nc1ccc(S(=O)(=O)Nc2ccc(F)c(Cl)c2)cc1				>14 µM
Nc1[nH]c(=S)nc2c1C(c1ccc([N+](=O)[O-])cc1)c1c([nH]c(=S)[nH]c1=O)O2			p24	<5 µg/mL
O=c1c2ccccc2sn1/N=C/c1ccc(O)cc1O			MTT	>21 µM
CC1(C)Cc2c(Br)c(Br)c(Br)c(OCCCN3CCCCC3)c2O1			cytopathic effect / MTT	>6 µM
C/C=C\CN1C(=O)c2cccn2S(=O)(=O)c2ccc(Cl)cc21			cytopathic effect / MTT	>300 µM
CCc1c(Cc2cc(C)cc(C)c2)n(COCC#Cc2cnccn2)c(=O)[nH]c1=O	IIIB	EFV-resistant (K103R V179D P225H)	MTT	14 µM
COc1ccc(-c2nnc(S[C@@H]3O[C@H](COC(C)=O)[C@@H](OC(C)=O)[C@H](OC(C)=O)[C@H]3OC(C)=O)n2N)cc1	IIIB			>100 µM
COc1cc(/C=N/n2sc3ccccc3c2=O)ccc1O			MTT	>15 µM
[N-]=[N+]=NCC(CO)OCn1ccc(=O)[nH]c1=O			p24	>1000 µM
CCc1c(Cc2cc(C)cc(C)c2)n(COCC#Cc2ccc(NC(=O)CBr)cc2)c(=O)[nH]c1=O	IIIB	K103N + Y181C	MTT	2.3 µM
Cc1ccc(-c2nnc3sc(C(CC(C)C)N4C(=O)c5ccccc5C4=O)nn23)cc1	IIIB			>100 µM
[N-]=[N+]=NCC(CO)OCn1ncc(=O)[nH]c1=O			p24	>1000 µM
O=C(Nc1ccc(S(=O)(=O)Nc2cccc(Cl)c2F)cc1)c1cc(O)c(O)c(O)c1				>25 µM
Cc1cn([C@H]2CO[C@@H](CO)S2)c(=O)[nH]c1=O				>100 µg/mL
Cc1cn([C@H]2C=C[C@@H](CO)O2)c(=O)[nH]c1=O	IIIB		RT activity	0.28 µM
CCC(=O)c1ccc(F)c(C2CC2NC(=O)Nc2ccc(Br)cn2)c1O	IIIB	RT-L100I	cytopathic effect / XTT	0.1 µM
Cc1cn(C2OC(CO[Si](C)(C)C(C)(C)C)C3(OS(=O)(=O)C=C3N)C2O[Si](C)(C)C(C)(C)C)c(=O)n(/C=C\CO)c1=O	IIIB		trypan blue	0.32 µM
CC1(C)Cc2c(Br)c(Br)c(Br)c(OCCCN3CCN(c4ccccn4)CC3)c2O1			cytopathic effect / MTT	>47 µM
CCCN1C(=O)c2cccn2S(=O)(=O)c2ccc(Cl)cc21			cytopathic effect / MTT	>300 µM
Cc1cn([C@H]2C[C@H](N=[N+]=[N-])[C@@H](CO)O2)c(=O)[nH]c1=O	IIIB		MTT	0.0015 µg/mL
O=c1c2ccccc2sn1/N=C/c1ccccc1Cl			MTT	20 µM
O=c1ccn([C@H]2C=C[C@@H](CO)O2)c(=O)n1CCCN1CCN(CCNC(=S)Nc2ccc(Br)cn2)CC1	IIIB		RT activity	>100 µM
O=C1Nc2cc(Cl)ccc2S(=O)(=O)n2cccc21			cytopathic effect / MTT	35 µM
O=C(/C=C/c1ccc(O)c(O)c1)Nc1ccc(S(=O)(=O)Nc2ccccc2Br)cc1				13 µM
COc1cccc2c1N(C(=O)OC(C)C)C(CSC)C(=S)N2	IIIB	RT-L100I	cytopathic effect / XTT	0.07 µM
CCc1c(Cc2cc(C)cc(C)c2)n(COCc2cn(-c3cccnc3)nn2)c(=O)[nH]c1=O	IIIB	K103N + Y181C	MTT	100 µM
O=c1c2ccccc2sn1/N=C/c1ccc([N+](=O)[O-])cc1			MTT	45 µM
O=C(Nc1ccc(S(=O)(=O)Nc2ccccc2Br)cc1)c1cc(O)c(O)c(O)c1				>25 µM
Cc1ccc(-c2nnc3sc(CN)nn23)cc1	IIIB			>100 µM
CC(C)N1C(=O)c2cccn2S(=O)(=O)c2ccc(Cl)cc21			cytopathic effect / MTT	>300 µM
Cc1cn(C2OC(CO[Si](C)(C)C(C)(C)C)C3(OS(=O)(=O)C=C3N)C2O[Si](C)(C)C(C)(C)C)c(=O)n(/C=C/CO)c1=O	IIIB		trypan blue	0.04 µM
O=c1ccn([C@H]2C=C[C@@H](CO)O2)c(=O)n1CCOCCN1CCN(CCNC(=S)Nc2ccc(Br)cn2)CC1	IIIB		RT activity	>100 µM

Conditions beyond the fields shown may differ between rows. An empty or dashed field is not shown.